These results are taken from publication PMC3161980, “Modulation of NKp30- and NKp46-Mediated Natural Killer Cell Responses by Poxviral Hemagglutinin” (PLoS Pathogens, 2011).

In the assay the target is soluble recombinant HA(VV)-V5-His6 (ectodomain of HA from VV strain WR) (vaccinia virus strain Western Reserve …, UniProt Q01218 17-277). In words: ELISA. In general terms: In an ELISA, binding on a coated surface is turned into a signal by an enzyme label.

B1: NKp30-Fc: long (canonical) ectodomain of NKp30 fused to the Fc portion of human IgG1 (Fc fusion)
chain: LWVSQPPEIRTLEGSSAFLPCSFNASQGRLAIGSVTWFRDEVVPGKEVRNGTPEFRGRLAPLASSRFLHDHQAELHIRDVRGHDASIYVCRVEVLGLGVGTGNGTRLVVEKEHPQLG
notes: also called NKp30(long)-Fc; NKp30-hIgG1-Fc
Consider B1, for which the binding result is recorded as “binds”.

B2: NKp46-Fc: ectodomain of NKp46 fused to the Fc portion of human IgG1 (Fc fusion)
chain: QQQTLPKPFIWAEPHFMVPKEKQVTICCQGNYGAVEYQLHFEGSLFAVDRPKPPERINKVQFYIPDMNSRMAGQYSCIYRVGELWSEPSNLLDLVVTEMYDTPTLSVHPGPEVISGEKVTFYCRLDTATSMFLLLKEGRSSHVQRGYGKVQAEFPLGPVTTAHRGTYRCFGSYNNHAWSFPSEPVKLLVTGDIENTSLAPEDPTFPADTWGTYLLTTETGLQKDHALWDHTAQNLLR
notes: also called NKp46-hIgG1-Fc; soluble NKp46
For B2, the binding result is “binds”.
